Laboratory results as given in publication PMC5802825, “Legionella DotM structure reveals a role in effector recruiting to the Type 4B secretion system” (2018).

Target: DotM153 WT (cytoplasmic domain of DotM, residues 153–380) (Legionella pneumophila subsp. pneumophila, UniProt Q5ZYC7)
Assay: Isothermal titration calorimetry of effector C-terminal peptides binding to wild-type DotM153
Settings: ITC, 25 °C, 100 mM NaCl, 25 mM HEPES pH 7.5, protein 10–30 μM, peptide 220–350 μM, single-site-binding model

Compound | KD (μM)
CC(C)[C@H](NC(=O)[C@H](CO)NC(=O)[C@H](C)NC(=O)[C@H](CO)NC(=O)[C@H](CC(N)=O)NC(=O)[C@H](CCCNC(=N)N)NC(=O)[C@H](CO)NC(=O)[C@H](CCC(=O)O)NC(=O)[C@H](CCC(=O)O)NC(=O)[C@H](CC(=O)O)NC(=O)[C@H](CCC(=O)O)NC(=O)[C@H](CC(N)=O)NC(=O)[C@H](CCC(=O)O)NC(=O)[C@H](CCC(=O)O)NC(=O)[C@H](CCC(=O)O)NC(=O)[C@H](CO)NC(=O)[C@H](CCC(=O)O)NC(=O)[C@H](C)NC(=O)[C@H](CCCCN)NC(=O)[C@H](CC(=O)O)NC(=O)[C@H](CCC(=O)O)NC(=O)[C@H](CO)NC(=O)[C@@H](NC(=O)[C@@H](NC(=O)[C@H](CCCCN)NC(=O)[C@@H]1CCCN1C(=O)CNC(=O)CN)C(C)C)C(C)C)C(=O)O | high affinity
CC(C)C[C@H](NC(=O)[C@H](CO)NC(=O)[C@H](CO)NC(=O)[C@H](CC(C)C)NC(=O)[C@H](CC(C)C)NC(=O)[C@H](CO)NC(=O)[C@H](CO)NC(=O)[C@H](CCC(=O)O)NC(=O)[C@H](CCC(=O)O)NC(=O)[C@H](CCC(=O)O)NC(=O)[C@H](CCC(=O)O)NC(=O)[C@H](CCC(=O)O)NC(=O)[C@H](CCC(=O)O)NC(=O)[C@H](CCC(=O)O)NC(=O)[C@H](CCC(=O)O)NC(=O)[C@H](CC(C)C)NC(=O)[C@H](CC(C)C)NC(=O)[C@@H](NC(=O)[C@H](CC(=O)O)NC(=O)[C@H](CC(=O)O)NC(=O)[C@H](CO)NC(=O)[C@H](CO)NC(=O)[C@H](Cc1ccccc1)NC(=O)CNC(=O)CN)C(C)C)C(=O)N[C@@H](CCCCN)C(=O)N[C@@H](CCC(=O)O)C(=O)O | high affinity
CSCC[C@H](NC(=O)[C@@H](NC(=O)[C@H](Cc1ccccc1)NC(=O)[C@H](CCCNC(=N)N)NC(=O)[C@H](CO)NC(=O)[C@H](CO)NC(=O)[C@H](CCC(=O)O)NC(=O)[C@H](CCC(=O)O)NC(=O)[C@H](CC(N)=O)NC(=O)[C@H](CCC(=O)O)NC(=O)[C@H](CCC(=O)O)NC(=O)[C@H](CCC(=O)O)NC(=O)[C@H](CCCCN)NC(=O)[C@H](CCC(=O)O)NC(=O)[C@H](CCC(=O)O)NC(=O)[C@H](CC(N)=O)NC(=O)[C@H](CCC(=O)O)NC(=O)[C@H](CO)NC(=O)[C@H](CO)NC(=O)[C@H](CCC(=O)O)NC(=O)[C@H](CO)NC(=O)[C@H](CO)NC(=O)[C@H](CO)NC(=O)[C@H](Cc1ccccc1)NC(=O)[C@H](CCC(=O)O)NC(=O)[C@H](C)NC(=O)CNC(=O)CN)[C@@H](C)O)C(=O)O | high affinity
